Results of unrelated studies side by side (data: NIAID ChemDB).

ICn is the concentration giving n% inhibition. A number after MIC or MFC names an inhibition level or a share of isolates. MIC bound: limit read from a one-dose screen. ECn: concentration that inhibits the pathogen or its effect by n%. Inhibition is in % at the dose shown (toxicity tests: loss of growth or viability). An empty or dashed field is not shown. Neighbouring rows are from separate reports.

compound	strain	cell line	tested at	test	protein	endpoint	read by	organism	result
CCN(CC)CCNc1cc(C)nc2c1ccc1c2ccc2c(NCCN(CC)CC)cc(C)nc21	H37Rv	-	-	culture	-	MIC bound	-	Mycobacterium tuberculosis	>6.25 µg/mL
C#CC[C@@H](C(=O)N[C@H](/C=C/C(=O)OCC)C[C@@H]1CCNC1=O)n1cccc(NC(=O)c2cc(C)on2)c1=O	Serotype 73	H1-HELA	-	culture	-	EC50	cytopathic effect / XTT	Rhinovirus	0.059 µM
Cc1ccc2c(c1)N(CC(O)CO)CCC2	H37Rv	-	-	culture	-	MIC	-	Mycobacterium tuberculosis	100 µg/mL
COc1cccc(N2CCN(c3cnccn3)C(c3cc4ccccc4o3)C2)c1	-	-	-	target	UL97 kinase	IC50	-	Cytomegalovirus	<10 µM
CC(O)C(NC(=O)OCc1ccccc1)C(=O)NC(CO)C(=O)NN	H37Rv	-	-	culture	-	MIC bound	BACTEC	Mycobacterium tuberculosis	>12.8 µg/mL
COc1ccc(N2CCN(c3cncc(-c4ccc(C(N)=O)cc4)n3)CC2)cc1OC	-	-	-	target	UL97 kinase	IC50	-	Cytomegalovirus	<1 µM
CS(=O)(=O)c1ccc2ncccc2c1	H37Rv	-	-	culture	-	MIC	-	Mycobacterium tuberculosis	>100 µg/mL
CC(C)(C)c1ccc(-c2cncc(N3CCN(c4ccncc4)CC3)n2)cc1	-	-	1 µM	target	UL97 kinase	inhibition	-	Cytomegalovirus	<50%
O=C(O)c1ccccc1-c1ccccc1C(=O)O	H37Rv	-	-	culture	-	MIC	-	Mycobacterium tuberculosis	100 µg/mL
NC(=O)n1ncc(Cl)c(Cl)c1=O	H37Rv	-	12.5 µg/mL	culture	-	inhibition	BACTEC	Mycobacterium tuberculosis	-9%
O=S(=O)([O-])c1cc(NS(=O)(=O)c2ccccc2)c2c(S(=O)(=O)[O-])cc(S(=O)(=O)[O-])cc2c1	TYPE 3	Human embryonic lung cells	50 µg/mL	culture	-	inhibition	cytopathic effect	Adenovirus	90%
O=C(c1ccc(-c2ccccc2)cc1)c1ccc(-c2ccccc2)cc1	H37Rv	-	-	culture	-	MIC	-	Mycobacterium tuberculosis	>100 µg/mL
O=C(OCCN1CCN(CCCN2c3ccccc3Sc3ccc(C(F)(F)F)cc32)CC1)C12CC3CC(CC(C3)C1)C2	H37Rv	-	-	culture	-	MIC bound	BACTEC	Mycobacterium tuberculosis	>12.5 µg/mL
CCOC(=O)C(C)C(O)c1ccccc1	H37Rv	-	-	culture	-	MIC	-	Mycobacterium tuberculosis	50 µg/mL
Clc1cccc(N2CCN(c3cncc(-c4ccccc4Oc4ccccc4)n3)CC2)c1	-	-	10 µM	target	UL97 kinase	inhibition	-	Cytomegalovirus	>15%
COc1cc(C[C@H](C)[C@H](C)Cc2ccc(O)c(O)c2)ccc1O	CCC 123-2000	-	-	culture	-	MIC100	broth dilution	Candida kefyr	31.25 µg/mL
O=S(=O)([O-])c1ccc(O)cc1	TYPE 3	Human embryonic lung cells	5 µg/mL	culture	-	inhibition	cytopathic effect	Adenovirus	0%
Nc1ccc(-c2ccccc2-c2ccccc2)cc1	H37Rv	-	-	culture	-	MIC	-	Mycobacterium tuberculosis	50 µg/mL
Fc1ccc(N2CCCCC2)c(NC(=S)c2ccncc2)c1	-	-	10 µM	host protein	p70S6Kb	inhibition	kinase activity	-	48.7%
Cc1ccc(C(C)C)c(OCCOCC[n+]2ccccc2)c1	H37Rv	-	-	culture	-	MIC	-	Mycobacterium tuberculosis	>100 µg/mL
Cc1c([N+](=O)[O-])c(=O)oc2ccc3c(=O)ccoc3c12	H37Rv	-	12.5 µg/mL	culture	-	inhibition	BACTEC	Mycobacterium tuberculosis	8%
Brc1ccc(OCc2ccccc2)cc1	H37Rv	-	-	culture	-	MIC	-	Mycobacterium tuberculosis	25 µg/mL
COc1ccccc1N1CCN(c2cncc(-c3ccc(F)c(Cl)c3)n2)CC1	-	-	-	target	UL97 kinase	IC50	-	Cytomegalovirus	<100 µM
Nc1c(S(=O)(=O)O)cc2cc(S(=O)(=O)O)cc(O)c2c1O	TYPE 3	Human amnion AV3 cells	10 µg/mL	culture	-	inhibition	cytopathic effect	Adenovirus	23%
CCc1ccc(OCCO)c(Cl)c1	H37Rv	-	-	culture	-	MIC	-	Mycobacterium tuberculosis	>100 µg/mL
Nc1ccc2c(n1)NCC/C2=N\Nc1ccccc1	H37Rv	-	12.5 µg/mL	culture	-	inhibition	BACTEC	Mycobacterium tuberculosis	96%
Nc1cc2ccccc2cc1C(=O)O	H37Rv	-	-	culture	-	MIC	-	Mycobacterium tuberculosis	25 µg/mL
COC(=O)c1onc(-c2c(OC)cc(OC)cc2OC)c1C(=O)OC	H37Rv	-	-	culture	-	MIC bound	resazurin	Mycobacterium tuberculosis	>6.25 µg/mL
CCC(CC)O[C@@H]1C=C(C(=O)O)C[C@H](N)[C@H]1NC(C)=O	H1N1 A/TEXAS/36/91	MDCK	-	culture	-	EC50	visual reading	Influenza A virus	0.16 µM
OCc1ccc(Br)cc1	H37Rv	-	-	culture	-	MIC	-	Mycobacterium tuberculosis	>100 µg/mL
C=C1[C@@H](C)[C@H]2[C@H](Cc3ccccc3)NC(=O)[C@]23[C@H](OC(C)=O)/C=C/[C@](C)(O)C[C@@H](C)C/C=C/[C@H]3[C@@H]1O	H37Rv	-	-	culture	-	MIC bound	BACTEC	Mycobacterium tuberculosis	>12.5 µg/mL
O=C(Nc1ccc2c(O)c(N=Nc3ccc(N=Nc4ccc(S(=O)(=O)O)cc4)cc3)c(S(=O)(=O)O)cc2c1)c1ccccc1	-	Human amnion AV3 cells	5 µg/mL	culture	-	inhibition	cytopathic effect	Herpes simplex virus	0%
CN(C)C(=S)SCC(=O)NC(CO)C(=O)O	H37Rv	-	-	culture	-	MIC	BACTEC	Mycobacterium tuberculosis	≥128 µg/mL
COc1cc(-c2ccc(N=Nc3ccc4c(S(=O)(=O)O)cc(S(=O)(=O)O)c(N)c4c3O)c(OC)c2)ccc1N=Nc1ccc2c(S(=O)(=O)O)cc(S(=O)(=O)O)c(N)c2c1O	-	Human amnion AV3 cells	50 µg/mL	culture	-	inhibition	cytopathic effect	Herpes simplex virus	100%
Brc1cccc(C=Nc2ccccc2)c1	H37Rv	-	-	culture	-	MIC	-	Mycobacterium tuberculosis	>100 µg/mL
C=CCc1ccc(OC)c(OC)c1	2852	-	-	culture	-	MIC90	turbidity	Candida tropicalis	350 µg/mL
Cc1ccnc(Nc2nnc(Nc3cc(C)ccn3)c3ccccc23)c1	H37Rv	-	-	culture	-	MIC bound	BACTEC	Mycobacterium tuberculosis	>12.5 µg/mL
O=C1c2ccccc2C(=O)N1CCCl	H37Rv	-	-	culture	-	MIC	-	Mycobacterium tuberculosis	>100 µg/mL
CSc1ccc(-c2cncc(N3CCC(c4ccccc4)CC3)n2)cc1	-	-	-	target	UL97 kinase	IC50	-	Cytomegalovirus	<10 µM
N#C[C@H](O[C@@H]1O[C@H](CO[C@@H]2O[C@H](CO)[C@@H](O)[C@H](O)[C@H]2O)[C@@H](O)[C@H](O)[C@H]1O)c1ccccc1	H37Rv	-	-	culture	-	MIC	BACTEC	Mycobacterium tuberculosis	≥128 µg/mL
Nc1cccc(S(=O)(=O)O)c1	-	Human amnion AV3 cells	50 µg/mL	culture	-	inhibition	cytopathic effect	Herpes simplex virus	17%
CN(C)c1ccc(C(=O)O)cc1	H37Rv	-	-	culture	-	MIC	-	Mycobacterium tuberculosis	100 µg/mL
CCC1CC(C)C(O)/C=C/C=C/CC(C)OC(=O)CC(O)C(OC)C1O[C@@H]1O[C@H](C)C[C@@](O)(C(C)=O)[C@H]1O	H37Rv	-	12.5 µg/mL	culture	-	inhibition	BACTEC	Mycobacterium tuberculosis	-10%
Br.CCN(CC)CCS(=O)(=O)CCCOc1ccc([N+](=O)[O-])cc1	H37Rv	-	-	culture	-	MIC	-	Mycobacterium tuberculosis	>100 µg/mL
Cc1c(-c2ccc(-c3ccccc3F)cc2)nc2ccc(F)cc2c1C(=O)O	H37Rv	-	-	culture	-	MIC bound	BACTEC	Mycobacterium tuberculosis	>12.5 µg/mL
Nc1ccc2ccc(S(=O)(=O)O)cc2c1	H37Rv	-	-	culture	-	MIC	-	Mycobacterium tuberculosis	100 µg/mL
Cc1ccc(C(=O)N/N=C/c2ccc(N(C)C)cc2Cl)cc1	H37Rv	-	12.5 µg/mL	culture	-	inhibition	BACTEC	Mycobacterium tuberculosis	0%
CC(=O)CC(=O)Nc1ccc(C)cn1	H37Rv	-	-	culture	-	MIC	-	Mycobacterium tuberculosis	>100 µg/mL
CCCCCCCCCCCC1=NC(C)(CO)CO1	H37Rv	-	12.5 µg/mL	culture	-	inhibition	BACTEC	Mycobacterium tuberculosis	-8%
CCN(CC)CCO	H37Rv	-	-	culture	-	MIC	-	Mycobacterium tuberculosis	>100 µg/mL
COC(=O)C(CO)NC(=O)C(Cc1cnc[nH]1)NC(=O)CNC(=O)OCc1ccccc1	H37Rv	-	12.8 µg/mL	culture	-	inhibition	BACTEC	Mycobacterium tuberculosis	20%
COc1cccc(-c2cncc(N3CCN(c4cccc(OC)c4)CC3)n2)c1	-	-	-	target	UL97 kinase	IC50	-	Cytomegalovirus	<10 µM
Cc1nc(N)[nH]c(=O)c1-n1nnc2ccccc2c1=O	H37Rv	-	-	culture	-	MIC bound	BACTEC	Mycobacterium tuberculosis	>12.5 µg/mL
Fc1ccc(N2CCN(c3cncc(-c4ccc(F)c(Cl)c4)n3)CC2)c(F)c1	-	-	10 µM	target	UL97 kinase	inhibition	-	Cytomegalovirus	>15%
CCOc1ccn(CC(=O)c2ccc([N+](=O)[O-])o2)c(=O)n1	H37Rv	-	-	culture	-	MIC bound	resazurin	Mycobacterium tuberculosis	>6.25 µg/mL
COc1cccc(N2CCN(c3cncc(-c4ccc(F)cc4)n3)CC2)c1	-	-	1 µM	target	UL97 kinase	inhibition	-	Cytomegalovirus	<50%
O=C1NC(CN2CCC(O)CC2)C(=O)NC1CN1CCC(O)CC1	H37Rv	-	-	culture	-	MIC bound	BACTEC	Mycobacterium tuberculosis	>12.5 µg/mL
CCO/N=C/c1ccc(OCCC2CCN(c3ccc(C)nn3)CC2)cc1	41467 (ICAM-1 receptor group 89)	KB	-	culture	-	EC50	neutral red	Rhinovirus	0.002 µM
Cc1ccc(S(=O)(=O)N/N=C(\CC(=O)c2c(C)n([O-])c3ccccc3[n+]2=O)C(=O)Nc2ccccc2C)cc1	H37Rv	-	-	culture	-	MIC	BACTEC	Mycobacterium tuberculosis	≥12.5 µg/mL
OCCC[n+]1ccccc1.[Cl-]	H37Rv	-	-	culture	-	MIC	-	Mycobacterium tuberculosis	>100 µg/mL

Repeating the final 7 entries:

compound,strain,cell line,tested at,test,protein,endpoint,read by,organism,result
Fc1ccc(N2CCN(c3cncc(-c4ccc(F)c(Cl)c4)n3)CC2)c(F)c1,-,-,10 µM,target,UL97 kinase,inhibition,-,Cytomegalovirus,>15%
CCOc1ccn(CC(=O)c2ccc([N+](=O)[O-])o2)c(=O)n1,H37Rv,-,-,culture,-,MIC bound,resazurin,Mycobacterium tuberculosis,>6.25 µg/mL
COc1cccc(N2CCN(c3cncc(-c4ccc(F)cc4)n3)CC2)c1,-,-,1 µM,target,UL97 kinase,inhibition,-,Cytomegalovirus,<50%
O=C1NC(CN2CCC(O)CC2)C(=O)NC1CN1CCC(O)CC1,H37Rv,-,-,culture,-,MIC bound,BACTEC,Mycobacterium tuberculosis,>12.5 µg/mL
CCO/N=C/c1ccc(OCCC2CCN(c3ccc(C)nn3)CC2)cc1,41467 (ICAM-1 receptor group 89),KB,-,culture,-,EC50,neutral red,Rhinovirus,0.002 µM
Cc1ccc(S(=O)(=O)N/N=C(\CC(=O)c2c(C)n([O-])c3ccccc3[n+]2=O)C(=O)Nc2ccccc2C)cc1,H37Rv,-,-,culture,-,MIC,BACTEC,Mycobacterium tuberculosis,≥12.5 µg/mL
OCCC[n+]1ccccc1.[Cl-],H37Rv,-,-,culture,-,MIC,-,Mycobacterium tuberculosis,>100 µg/mL